Measured values reported in BindingDB's records for 26878082 (University of Bonn, 2016).

These molecules were tested against Replicase polyprotein 1ab (Severe acute respiratory syndrome coronavirus, UniProt P0C6X7) (assay: ASSAY_NAME: No assay is provided DESCRIPTION: This is a review article.).

Row | SMILES | IC50 [µM]
1 | O=CC(Cc1c[nH]cn1)NC[C@H]1C[C@@H]2CCCC[C@@H]2CN1C(=O)c1ccc(-c2ccccc2)cc1 (stereo partly drawn) | 240
2 | O=CC(Cc1c[nH]cn1)NCC1CC2CCCCC2CN1C(=O)c1ccccc1 (stereo not drawn) | 68
3 | O=CC(Cc1c[nH]cn1)NC[C@@H]1C[C@H]2CCCC[C@H]2CN1C(=O)c1ccc(-c2ccccc2)cc1 (stereo partly drawn) | 108
